Patent US20060275317A1, “Vaccine compositions for prevention of chronic and infectious diseases” (Biokit S.A., priority 2003, published 2006)

Key:
human lysozyme = assay: Lysozyme inhibition assay of GST-Tp17 mutants; assay type: biochemical; conditions: 2 units human lysozyme; 45 min 37° C
lysozyme = target: T1, lysozyme (Homo sapiens, UniProt P61626); assay: Lysozyme binding of GST-Tp17 mutants (blot, FIG. 36)
T1 sequence (P61626 19-148): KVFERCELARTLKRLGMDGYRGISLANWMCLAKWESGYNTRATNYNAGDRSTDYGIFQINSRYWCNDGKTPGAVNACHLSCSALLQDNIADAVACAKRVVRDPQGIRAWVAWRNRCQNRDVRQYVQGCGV

B1: H31A (protein)
chain: MSPILGYWKIKGLVQPTRLLLEYLEEKYEEHLYERDEGDKWRDKKFELGLEFPNLPYYIDGDVKLTQSMAIIRYIADKHNMLGGCPKERAEISMLEGAVLDIRYGVSRIAYSKDFETLKVDFLSKLPEMLKMFEDRLCHKTYLNGDHVTHPDFMLYDALDVVLYMDPMCLDAFPKLVCFKKRIEAIPQIDKYLKSSKYIAWPLQGWQATFGGGDHPPKSDLVPRGSCVSCTTVCPAAGKAKAEKVECALKGGIFRGTLPAADCPGIDTTVTFNADGTAQKVELALEKKSAPSPLTYRGTWMVREDGIVELSLVSSEQSKAPHEKELYELIDSNSVRYMGAPGAGKPSKEMAPFYVLKKTKK
With B1 the “lysozyme inhibition relative to wild-type Tp17” value (human lysozyme) was “decrease in lysozyme inhibition” and the “ability to bind lysozyme” value (lysozyme) was “retained their ability to bind lysozyme”.
